In patent US7968297B2, “Method for identification, isolation and production of antigens to a specific pathogen” (Intercell AG, priority 2001, dated 2011):

System: purified IgGs from human sera
Assay: Ribosome display screening with purified human IgGs
Format: binding
Conditions: for No. of selected clones per ORF and screen: D: Ribosome display: D
[1] = LSA250/1 library with IC sera (1686)
[2] = identified by ribosome display (screen D)
[3] = ORFs selected by ribosome display only (screen D)
[4] = LSE150 in pMAL4.31 with P2 (1235)

B1: ORF0456 (protein, listed as Staphylococcus aureus)
chain: MNHNVIIVIALIIVVISMLAMLIRVVLGPSLADRVVALDAIGLQLMAVIALFSILLNIKYMIVVIMMIGILAFLGTAVFSKFMDKGKVIEHDQNHTD
[1]
  No. of selected clones per ORF and screen: D: D: 66
[2]
  Location of identified Immunogenic region: aa 1-21

B2: 0RF0288 (protein, listed as Staphylococcus epidermidis)
chain: MIEHLGINTPYFGILVSLIPFVIATYFYKKTNGFFLLAPLFVSMVAGIAFLKLTGISYENYKIGGDIINFFLEPATICFAIPLYRKREVLKKYWLQIFGGIAVGTIIALLLIYLVAITFQFGNQIIASMLPQAATTAIALPVSDGIGGVKELTSLAVILNAVVISALGAKIVKLFKISNPIARGLALGTSGHTLGVAAAKELGETEESMGSIAVVIVGVIVVAVVPILAPILL
[3]
  Location of identified Immunogenic region: aa 112-149
[4]
  No. of selected clones per ORF and screen: D: D: 4

B3: ORF0304 (protein, listed as Staphylococcus epidermidis)
chain: MKRTDKYRDSYKYDDQYQNHRKRSEEDMYRQHQESQQRANSNRATQSENDREYENHPERYYNGRDYRREQQLEEENEKSSKTKKWLIAIIVILLIIVAIFITRAIINHNNDKVSNDPNVSQNYKKEVENQNDDINRQVDSAKSDIKNKKDTQSQIDKLQNQIDQLKQNEETNADSKFTKFYQNQIDKLKNANNAQLNNENQSKVNNMLEDINTKFDSIKAKLENILNGSNSGN
[3]
  Location of identified Immunogenic region: aa 69-117
[4]
  No. of selected clones per ORF and screen: D: D: 8

B4: ORF0340 (protein, listed as Staphylococcus epidermidis)
chain: MAVKVAINGFGRIGRLAFRRIQEVEGLEVVAVNDLTDDDMLAHLLKYDTMQGRFTGEVEVVDGGFRVNGKEVKSFSEPDASKLPWKDLNIDVVLECTGFYTDKDKAQAHIEAGAKKVLISAPATGDLKTIVFNTNHQELDGSETVVSGASCTTNSLAPVAKVLNDDFGLVEGLMTTIHAYTGDQNTQDAPHRKGDKRRARAAAENIIPNSTGAAKAIGKVIPEIDGKLDGGAQRVPVATGSLTELTVVLEKQDVTVEQVNEAMKNASNESFGYTEDEIVSSDVVGMTYGSLFDATQTRVMSVGDRQLVKVAAWYDNEMSYTAQLVRTLAYLAELSK
[3]
  Location of identified Immunogenic region: aa 238-309
[4]
  No. of selected clones per ORF and screen: D: D: 5

B5: ORF0629 (protein, listed as Staphylococcus aureus)
chain: MTGEQFTQIKRPVSRLTEKVLGWLCWVMLLVLTVITMFIALVSFSNNTSIANLENTLNNNAFIQQLLAGNGYNTTQFVIWLQNGIWAIIVYFIVCLLISFLALISMNIRILSGFLFLISAIVTIPLVLLIVTLIIPILFFIIAMMLFIRKDKVEMVAPQYYEEYNGPIYDYREPVYERPQPKDDYYDVPKYEKELDKSNTVYDQEQERDKYDQFPKRAVESEYNHDERTEEEPSVLSRQAKYKQKSTEELGIEDDGYYAEPEVDPKELKAQQKREKAEIKAKKKEKRKAYNQRMKERRKNQPSAVSQRRMNFEERRQIYNNDISEERNSSEVKDKKEQE
[1]
  No. of selected clones per ORF and screen: D: D: 313
[2]
  Location of identified Immunogenic region: aa 13-37

B6: ORF0356 (protein, listed as Staphylococcus epidermidis)
chain: MAMSLLVSLVVYMMTLTSDILEDILSFKLEVIMQFPYILSSISLIILFILFILKDMEKIWYWLISIVMIAVISMSGHVWSQQVPLWSIIIRTIHLIGLTLWLGSLVYLICYAIKVKINQLTSVRRMLLKVNIIAVIMLVFTGILMAIDETNTLTLWNNVSAWSIYLVIKIAGIIAMMLLGFYQTMRALRQRQQVHRFALMTELLIGMILILQVS
[3]
  Location of identified Immunogenic region: aa 51-91
[4]
  No. of selected clones per ORF and screen: D: D: 5

B7: ORF0406 (protein, listed as Staphylococcus epidermidis)
chain: MKNSRFSGFQWAMMVFVFFVITMALSVILRDFQATIGVKRFVFSIKDLAPFIAAIVCILVFKHRKEQLAGLKFSISLKVIERLLLALILPLIILMIGLFSFNTYADSFILLQTSDLSVSLLTILIGHILMAFVVEFGFRSYLQNILETRMNTFFASIVVGLIYSVFTANTTYGVEYAGYHFLYTFMFSMIIGELIRATNGRTIYIATAFHASMTFALVFLFSEETGDLFSMKVIALSTTIVGVSFIIISLIIRAIVYKTTKQSLDEVDPNNYLSHIQDEEPSQEDASSTSNHDVSSKDETKQQDIDNDKHQSKKPNKSDDALTTSNYKEDASSVNKETDTTHNDNIKDHSTYTEDRHSSVVNDVKDEIHEVEDHKADTDKSH
[4]
  No. of selected clones per ORF and screen: D: D: 19

B8: ORF0346 (protein, listed as Staphylococcus epidermidis)
chain: MKNKKGLGIGLITIMIIVCIVLVIMMFVGGKKESYYGIMKDSTTIDKMINTKNEKIEKNVELPKDANVSVKKEDFVMLFKDEKTGKITKVKKVNHDDVPHGLMSKIHDMGNMKHGM
[3]
  Location of identified Immunogenic region: aa 1-29
[4]
  No. of selected clones per ORF and screen: D: D: 8

B9: ORF1230 (protein, listed as Staphylococcus epidermidis)
chain: LKKEILEWIVAIAVAIALIAIITKFVGKSYSIKGDSMDPTLKDGERVVVNIIGYKLGGVEKGNVIVFHANKKDDYVKRVIGTPGDSVEYKNDTLYVNGKKQSEPYLNYNEKRKQTEYITGSFKTKNLPNANPQSNVIPKGKYLVLGDNREVSKDSRSFGLIDKDQIVGKVSLRYWPFSEFKSNFNPNNTKN
[3]
  Location of identified Immunogenic region: aa 1-53
[4]
  No. of selected clones per ORF and screen: D: D: 14

B10: ORF0307 (protein, listed as Staphylococcus aureus)
chain: MLFYLFHFTISFISTVLFSIIFNAPKRLLVACGFVGAIAWTIYQLTVDLEFGKVGASFLGSLILGLMSHTMSRRYKRPVIIFIVPGIIPLVPGGAAYQATRFLVSNDYTSAVNTFLEVTLISGAIAFGILVSEILYYLYTRIKQLYGKIKGKTYKKSYNMNNRV
[1]
  No. of selected clones per ORF and screen: D: D: 3
[2]
  Location of identified Immunogenic region: aa 9-44

B11: ORF1284 (protein, listed as Staphylococcus epidermidis)
chain: MFNKVWFRTGIFFIMLFILIKLFMEVHEVFAPIATIIGSVFLPFLISGFLFYICLPFQNILEKWGFPRWASITTIFIGLIAIIAIVVSFIAPIIISNINNLIKQTPSLQKEAEQLINFSLRQMDKLPDDVTHRINKAVKSMGDGATSILSNSVSYITSFISTVFLLIMVPFFLIYMLKDHEKFIPAIGKFFKGERKVFVVDLLKDLNFTLKSYIQGQVTVSIILGIILYIGYTIIGLPYTPLLVLFAGVANLIPFLGPWLSFAPAAILGIIDGPSTFIWVCVVTLIAQQLEGNVITPNVMGKSLSIHPLTIIVVILAAGDLGGFTLILVAVPLYAVIKTLVSNIFKYRQRIVDKANSNVKD
[3]
  Location of identified Immunogenic region: aa 55-106
[4]
  No. of selected clones per ORF and screen: D: D: 27

B12: ORF0788 (protein, listed as Staphylococcus aureus)
chain: MSFFKRLKDKFATNKENEEVKSLTEEQGQDKLEDTHSEGSTQDANDLAENAEVKKKPRKLSEADFDDDGLISIEDFEEIEAQKMGAKFKAGLEKSRQNFQEQLNNLIARYRKVDEDFFEALEEMLITADVGFNTVMTLTEELRMEAQRRNIQDTEDLREVIVEKIVEIYHQEDDNSEAMNLEDGRLNVILMVGVNGVGKTTTIGKLAYRYKMEGKKVMLAAGDTFRAGAIDQLKVWGERVGVDVISQSEGSDPAAVMYDAINAAKNKGVDILICDTAGRLQNKTNLMQELEKVKRVINRAVPDAPHEALLCLDATTGQNALSQARNFKEVTNVTGIVLTKLDGTAKGGIVLAIRNELHIPVKYVGLGEQLDDLQPFNPESYVYGLFADMIEQNEEITTVENDQIVTEEKDDNHGSK
[1]
  No. of selected clones per ORF and screen: D: D: 4
[2]
  Location of identified Immunogenic region: aa 152-178

B13: CRF0002 (protein)
chain: SSVFAIRLTITFSRFSNVGCKKHIKGAIIMKKEIIEWIVAIIVAIVIVTLVQKFLFASYTVKGASNVIYH
[3]
  Location of identified Immunogenic region: aa 21-70
[4]
  No. of selected clones per ORF and screen: D: D: 5
